Results of unrelated studies side by side (data: NIAID ChemDB).

ICn is the concentration giving n% inhibition. A number after MIC or MFC names an inhibition level or a share of isolates. Neighbouring rows are from separate reports. Blank or dashed fields: not listed here. ECn is the concentration giving n% inhibition of infection, replication or growth. Inhibition is in % at the dose shown (toxicity tests: loss of growth or viability).

{"structure": "Nc1ccc2cc(S(=O)(=O)O)cc(S(=O)(=O)O)c2c1", "method": "cytopathic effect", "organism": "Herpes simplex virus", "dose": "50 µg/mL", "measure": "inhibition", "cells": "Human amnion AV3 cells", "kind": "culture", "result": "0%"}
{"structure": "COc1ccc(N2CCN(c3cncc(-c4ccc(C(C)C)cc4)n3)CC2)cc1OC", "organism": "Cytomegalovirus", "dose": "1 µM", "measure": "inhibition", "kind": "target", "target": "UL97 kinase", "result": "<50%"}
{"structure": "CCOC(=O)c1c(C)nc(NCCCCNc2ccnc3cc(Cl)ccc23)nc1-c1ccc(F)cc1", "strain": "L24/01", "organism": "Cryptococcus gattii", "measure": "MIC99", "kind": "culture", "result": "8 µg/mL"}
{"structure": "COc1ccc(C(C)C)cc1-c1cncc(N2CCN(c3ccncc3)CC2)n1", "organism": "Cytomegalovirus", "measure": "IC50", "kind": "target", "target": "UL97 kinase", "result": "<100 µM"}
{"structure": "Oc1ccccc1N=Cc1cccc(O)c1O", "strain": "L24/01", "organism": "Cryptococcus gattii", "measure": "MIC99", "kind": "culture", "result": "2.8 µg/mL"}
{"structure": "O=S(=O)(O)c1ccc2ccc(S(=O)(=O)O)cc2c1", "method": "cytopathic effect", "organism": "Herpes simplex virus", "dose": "10 µg/mL", "measure": "inhibition", "cells": "Human conjunctiva cells", "kind": "culture", "result": "0%"}
{"structure": "CCO/N=C/c1ccc(OCCC2CCN(c3ccc(Cl)nn3)CC2)cc1", "method": "neutral red", "strain": "FO2-2317 (ICAM-1 receptor group 68)", "organism": "Rhinovirus", "measure": "EC50", "cells": "KB", "kind": "culture", "result": "0.059 µM"}
{"structure": "O=[N+]([O-])c1ccc(C=Nc2ccccc2O)cc1", "strain": "L 27/01", "organism": "Cryptococcus gattii", "measure": "MIC99", "kind": "culture", "result": "64 µg/mL"}
{"structure": "Fc1ccc(N2CCCCC2)c(NC(=S)c2ccncc2)c1", "method": "kinase activity", "dose": "10 µM", "measure": "inhibition", "kind": "host protein", "target": "Pyk2", "result": "11%"}
{"structure": "O=S(=O)([O-])c1cc(NS(=O)(=O)c2ccccc2)c2c(S(=O)(=O)[O-])cc(S(=O)(=O)[O-])cc2c1", "method": "cytopathic effect", "strain": "TYPE 3", "organism": "Adenovirus", "dose": "10 µg/mL", "measure": "inhibition", "cells": "Human amnion AV3 cells", "kind": "culture", "result": "0%"}
{"structure": "CC(=O)N[C@H]1[C@H]([C@H](O)[C@H](O)CO)OC(C(=O)O)=C[C@@H]1N=C(N)N", "strain": "B/Beijing/184/93", "organism": "Influenza B virus", "measure": "EC50", "cells": "MDCK", "kind": "culture", "result": "0.03 µM"}
{"structure": "O=C(Nc1c(S(=O)(=O)[O-])cc2cc(S(=O)(=O)[O-])cc(O)c2c1O)c1ccccc1", "method": "cytopathic effect", "strain": "TYPE 3", "organism": "Adenovirus", "dose": "50 µg/mL", "measure": "inhibition", "cells": "Human amnion AV3 cells", "kind": "culture", "result": "83%"}
{"structure": "COc1ccc(N2CCN(c3cncc(-c4ccc(C(F)(F)F)cc4)n3)CC2)cc1OC", "organism": "Cytomegalovirus", "dose": "1 µM", "measure": "inhibition", "kind": "target", "target": "UL97 kinase", "result": "<50%"}
{"structure": "CCOC(=O)c1c(C)nc(NCCCNc2ccnc3cc(Cl)ccc23)nc1-c1ccccc1", "strain": "L24/01", "organism": "Cryptococcus gattii", "measure": "MIC99", "kind": "culture", "result": "8 µg/mL"}
{"structure": "Nc1ccccc1S(=O)(=O)O", "method": "cytopathic effect", "strain": "TYPE 3", "organism": "Adenovirus", "dose": "50 µg/mL", "measure": "inhibition", "cells": "Human embryonic lung cells", "kind": "culture", "result": "40%"}
{"structure": "Oc1ccc(-c2cncc(NCc3cccs3)n2)cc1", "organism": "Cytomegalovirus", "measure": "IC50", "kind": "target", "target": "UL97 kinase", "result": "<1 µM"}
{"structure": "Cc1nc(NCCCCNc2ccnc3cc(Cl)ccc23)nc(-c2ccccc2)c1C(=O)OC(C)C", "strain": "ATCC 28957", "organism": "Cryptococcus neoformans", "measure": "MIC99", "kind": "culture", "result": "1.4 µg/mL"}
{"structure": "C=CCc1ccc(OC)c(OC)c1", "method": "turbidity", "strain": "2857", "organism": "Candida tropicalis", "measure": "MIC90", "kind": "culture", "result": "350 µg/mL"}
{"structure": "O=C(Nc1ccc2c(O)c(N=Nc3ccc(N=Nc4ccc(S(=O)(=O)O)cc4)cc3)c(S(=O)(=O)O)cc2c1)c1ccccc1", "method": "cytopathic effect", "organism": "Herpes simplex virus", "dose": "10 µg/mL", "measure": "inhibition", "cells": "Human amnion AV3 cells", "kind": "culture", "result": "0%"}
{"structure": "CCOC(=O)c1c(C)nc(OCCCNc2ccnc3cc(Cl)ccc23)nc1-c1ccccc1", "strain": "ATCC 32608", "organism": "Cryptococcus gattii", "measure": "MIC99", "kind": "culture", "result": "16 µg/mL"}
{"structure": "O=S(=O)([O-])c1cc(S(=O)(=O)[O-])c2cc(NS(=O)(=O)c3ccccc3)ccc2c1", "method": "cytopathic effect", "organism": "Rhinovirus", "dose": "10 µg/mL", "measure": "inhibition", "cells": "Human embryonic lung cells", "kind": "culture", "result": "10%"}
{"structure": "COc1cccc(-c2cncc(N3CCN(c4ccncc4)CC3)n2)c1", "organism": "Cytomegalovirus", "measure": "IC50", "kind": "target", "target": "UL97 kinase", "result": "<10 µM"}
{"structure": "O=C(Nc1ccc(S(=O)(=O)[O-])c2cccc(S(=O)(=O)[O-])c12)c1ccccc1", "method": "cytopathic effect", "organism": "Herpes simplex virus", "dose": "10 µg/mL", "measure": "inhibition", "cells": "Human conjunctiva cells", "kind": "culture", "result": "0%"}
{"structure": "COc1ccccc1N1CCN(c2cncc(-c3ccccc3C)n2)CC1", "organism": "Cytomegalovirus", "dose": "10 µM", "measure": "inhibition", "kind": "target", "target": "UL97 kinase", "result": ">15%"}
{"structure": "CCOC(=O)c1cnc(NCCCCNc2ccnc3cc(Cl)ccc23)nc1C", "strain": "135L/03", "organism": "Cryptococcus gattii", "measure": "MIC99", "kind": "culture", "result": "8 µg/mL"}

For reference, 4 entries again:

structure | method | strain | organism | dose | measure | cells | kind | target | result
COc1cccc(-c2cncc(N3CCN(c4ccncc4)CC3)n2)c1 | - | - | Cytomegalovirus | - | IC50 | - | target | UL97 kinase | <10 µM
O=C(Nc1ccc2c(O)c(N=Nc3ccc(N=Nc4ccc(S(=O)(=O)O)cc4)cc3)c(S(=O)(=O)O)cc2c1)c1ccccc1 | cytopathic effect | - | Herpes simplex virus | 10 µg/mL | inhibition | Human amnion AV3 cells | culture | - | 0%
CCO/N=C/c1ccc(OCCC2CCN(c3ccc(Cl)nn3)CC2)cc1 | neutral red | FO2-2317 (ICAM-1 receptor group 68) | Rhinovirus | - | EC50 | KB | culture | - | 0.059 µM
COc1ccc(N2CCN(c3cncc(-c4ccc(C(C)C)cc4)n3)CC2)cc1OC | - | - | Cytomegalovirus | 1 µM | inhibition | - | target | UL97 kinase | <50%